Experimental data published in article PMC9104152, “Phosphoproteomics Unravel HBV Triggered Rewiring of Host Phosphosignaling Events” (International Journal of Molecular Sciences, 2022).

B1: Q9UPN9 1xPhospho [T/S] (protein, UniProt Q9UPN9 1-1127, looked up)
E3 ubiquitin-protein ligase …: MAENKGGGEAESGGGGSGSAPVTAGAAGPAAQEAEPPLTAVLVEEEEEEGGRAGAEGGAAGPDDGGVAAASSGSAQAASSPAASVGTGVAGGAVSTPAPAPASAPAPGPSAGPPPGPPASLLDTCAVCQQSLQSRREAEPKLLPCLHSFCLRCLPEPERQLSVPIPGGSNGDIQQVGVIRCPVCRQECRQIDLVDNYFVKDTSEAPSSSDEKSEQVCTSCEDNASAVGFCVECGEWLCKTCIEAHQRVKFTKDHLIRKKEDVSESVGASGQRPVFCPVHKQEQLKLFCETCDRLTCRDCQLLEHKEHRYQFLEEAFQNQKGAIENLLAKLLEKKNYVHFAATQVQNRIKEVNETNKRVEQEIKVAIFTLINEINKKGKSLLQQLENVTKERQMKLLQQQNDITGLSRQVKHVMNFTNWAIASGSSTALLYSKRLITFQLRHILKARCDPVPAANGAIRFHCDPTFWAKNVVNLGNLVIESKPAPGYTPNVVVGQVPPGTNHISKTPGQINLAQLRLQHMQQQVYAQKHQQLQQMRMQQPPAPVPTTTTTTQQHPRQAAPQMLQQQPPRLISVQTMQRGNMNCGAFQAHQMRLAQNAARIPGIPRHSGPQYSMMQPHLQRQHSNPGHAGPFPVVSVHNTTINPTSPTTATMANANRGPTSPSVTAIELIPSVTNPENLPSLPDIPPIQLEDAGSSSLDNLLSRYISGSHLPPQPTSTMNPSPGPSALSPGSSGLSNSHTPVRPPSTSSTGSRGSCGSSGRTAEKTSLSFKSDQVKVKQEPGTEDEICSFSGGVKQEKTEDGRRSACMLSSPESSLTPPLSTNLHLESELDALASLENHVKIEPADMNESCKQSGLSSLVNGKSPIRSLMHRSARIGGDGNNKDDDPNEDWCAVCQNGGDLLCCEKCPKVFHLTCHVPTLLSFPSGDWICTFCRDIGKPEVEYDCDNLQHSKKGKTAQGLSPVDQRKCERLLLYLYCHELSIEFQEPVPASIPNYYKIIKKPMDLSTVKKKLQKKHSQHYQIPDDFVADVRLIFKNCERFNEMMKVVQVYADTQEINLKADSEVAQAGKAVALYFEDKLTEIYSDRTFAPLPEFEQEEDDGEVTEDSDEDFIQPRRKRLKSDERPVHIK
modifications: phosphorylated
B2: P29374 1xPhospho [S] (protein, UniProt P29374 1-1257, looked up)
AT-rich interactive …: MKAADEPAYLTVGTDVSAKYRGAFCEAKIKTVKRLVKVKVLLKQDNTTQLVQDDQVKGPLRVGAIVETRTSDGSFQEAIISKLTDASWYTVVFDDGDERTLRRTSLCLKGERHFAESETLDQLPLTNPEHFGTPVIAKKTNRGRRSSLPVTEDEKEEESSEEEDEDKRRLNDELLGKVVSVVSATERTEWYPALVISPSCNDDITVKKDQCLVRSFIDSKFYSIARKDIKEVDILNLPESELSTKPGLQKASIFLKTRVVPDNWKMDISEILESSSSDDEDGPAEENDEEKEKEAKKTEEEVPEEELDPEERDNFLQQLYKFMEDRGTPINKPPVLGYKDLNLFKLFRLVYHQGGCDNIDSGAVWKQIYMDLGIPILNSAASYNVKTAYRKYLYGFEEYCRSANIQFRTVHHHEPKVKEEKKDLEESMEEALKLDQEMPLTEVKSEPEENIDSNSESEREEIELKSPRGRRRIARDVNSIKKEIEEEKTEDKLKDNDTENKDVDDDYETAEKKENELLLGRKNTPKQKEKKIKKQEDSDKDSDEEEEKSQEREETESKCDSEGEEDEEDMEPCLTGTKVKVKYGRGKTQKIYEASIKSTEIDDGEVLYLVHYYGWNVRYDEWVKADRIIWPLDKGGPKKKQKKKAKNKEDSEKDEKRDEERQKSKRGRPPLKSTLSSNMPYGLSKTANSEGKSDSCSSDSETEDALEKNLINEELSLKDELEKNENLNDDKLDEENPKISAHILKENDRTQMQPLETLKLEVGENEQIVQIFGNKMEKTEEVKKEAEKSPKGKGRRSKTKDLSLEIIKISSFGQNEAGSEPHIEAHSLELSSLDNKNFSSATEDEIDQCVKEKKLKRKILGQSSPEKKIRIENGMEMTNTVSQERTSDCIGSEGMKNLNFEQHFERENEGMPSLIAESNQCIQQLTSERFDSPAEETVNIPLKEDEDAMPLIGPETLVCHEVDLDDLDEKDKTSIEDVAVESSESNSLVSIPPALPPVVQHNFSVASPLTLSQDESRSVKSESDITIEVDSIAEESQEGLCERESANGFETNVASGTCSIIVQERESREKGQKRPSDGNSGLMAKKQKRTPKRTSAAAKNEKNGTGQSSDSEDLPVLDNSSKCTPVKHLNVSKPQKLARSPARISPHIKDGEKDKHREKHPNSSPRTYKWSFQLNELDNMNSTERISFLQEKLQEIRKYYMSLKSEVATIDRRRKRLKKKDREVSHAGASMSSASSDTGMSPSSSSPPQNVLAVECR
modifications: monophosphorylated
B3: Q8NHH9 1xPhospho [T/S/Y] (protein, UniProt Q8NHH9 1-583, looked up)
Atlastin-2: MAEGDEAARGQQPHQGLWRRRRTSDPSAAVNHVSSTTSLGENYEDDDLVNSDEVMKKPCPVQIVLAHEDDHNFELDEEALEQILLQEHIRDLNIVVVSVAGAFRKGKSFLLDFMLRYMYNKDSQSWIGGNNEPLTGFTWRGGCERETTGIQVWNEVFVIDRPNGTKVAVLLMDTQGAFDSQSTIKDCATVFALSTMTSSVQVYNLSQNIQEDDLQHLQLFTEYGRLAMEEIYQKPFQTLMFLIRDWSYPYEHSYGLEGGKQFLEKRLQVKQNQHEELQNVRKHIHNCFSNLGCFLLPHPGLKVATNPSFDGRLKDIDEDFKRELRNLVPLLLAPENLVEKEISGSKVTCRDLVEYFKAYIKIYQGEELPHPKSMLQATAEANNLAAVAGARDTYCKSMEQVCGGDKPYIAPSDLERKHLDLKEVAIKQFRSVKKMGGDEFCRRYQDQLEAEIEETYANFIKHNDGKNIFYAARTPATLFAVMFAMYIISGLTGFIGLNSIAVLCNLVMGLALIFLCTWAYVKYSGEFREIGTVIDQIAETLWEQVLKPLGDNLMEENIRQSVTNSIKAGLTDQVSHHARLKTD
modifications: phosphorylated
B4: O94874 1xPhospho [S458(100)] (protein, UniProt O94874 2-794, looked up)
E3 UFM1-protein ligase 1: ADAWEEIRRLAADFQRAQFAEATQRLSERNCIEIVNKLIAQKQLEVVHTLDGKEYITPAQISKEMRDELHVRGGRVNIVDLQQVINVDLIHIENRIGDIIKSEKHVQLVLGQLIDENYLDRLAEEVNDKLQESGQVTISELCKTYDLPGNFLTQALTQRLGRIISGHIDLDNRGVIFTEAFVARHKARIRGLFSAITRPTAVNSLISKYGFQEQLLYSVLEELVNSGRLRGTVVGGRQDKAVFVPDIYSRTQSTWVDSFFRQNGYLEFDALSRLGIPDAVSYIKKRYKTTQLLFLKAACVGQGLVDQVEASVEEAISSGTWVDIAPLLPTSLSVEDAAILLQQVMRAFSKQASTVVFSDTVVVSEKFINDCTELFRELMHQKAEKEMKNNPVHLITEEDLKQISTLESVSTSKKDKKDERRRKATEGSGSMRGGGGGNAREYKIKKVKKKGRKDDDSDDESQSSHTGKKKPEISFMFQDEIEDFLRKHIQDAPEEFISELAEYLIKPLNKTYLEVVRSVFMSSTTSASGTGRKRTIKDLQEEVSNLYNNIRLFEKGMKFFADDTQAALTKHLLKSVCTDITNLIFNFLASDLMMAVDDPAAITSEIRKKILSKLSEETKVALTKLHNSLNEKSIEDFISCLDSAAEACDIMVKRGDKKRERQILFQHRQALAEQLKVTEDPALILHLTSVLLFQFSTHSMLHAPGRCVPQIIAFLNSKIPEDQHALLVKYQGLVVKQLVSQSKKTGQGDYPLNNELDKEQEDVASTTRKELQELSSSIKDLVLKSRKSSVTEE
modifications: phosphorylated S458
B5: A0JNW5 1xPhospho [S/T] (protein, UniProt A0JNW5 1-1464, looked up)
Bridge-like lipid transfer …: MAGIIKKQILKHLSRFTKNLSPDKINLSTLKGEGELKNLELDEEVLQNMLDLPTWLAINKVFCNKASIRIPWTKLKTHPICLSLDKVIMEMSTCEEPRSPNGPSPIATASGQSEYGFAEKVVEGISVSVNSIVIRIGAKAFNASFELSQLRIYSVNAHWEHGDLRFTRIQDPQRGEVLTFKEINWQMIRIEADATQSSHLEIMCAPVRLITNQSKIRVTLKRRLKDCNVIATKLVLILDDLLWVLTDSQLKAMVQYAKSLSEAIEKSTEQRKSMAPEPTQSSTVVASAQQVKTTQTSNAPDVNDAIVKLFNDFDVKETSHHLVISHLDLHICDDIHAKEKESNRRITGGAMQLSFTQLTIDYYPYHKAGDSCNHWMYFSDATKTKNGWANELLHEFECNVEMLKQAVKDHNVGSPPKSPTHASPQHTQTEKDYPLKGTCRTPSVLSQQSKAKLMSSSVVVRLADFNIYQVSTAEQCRSSPKSMICCNKKSLYLPQEMSAVYIEFTEYYYPDGKDFPIPSPNLYSQLNALQFTVDERSILWLNQFLLDLKQSLNQFMAVYKLNDNSKSDEHVDVRVDGLMLKFVIPSEVKSECHQDQPRAISIQSSEMIATNTRHCPNCRHSDLEALFQDFKDCDFFSKTYTSFPKSCDNFNLLHPIFQRHAHEQDTKMHEIYKGNITPQLNKNTLKTSAATDVWAVYFSQFWIDYEGMKSGKGRPISFVDSFPLSIWICQPTRYAESQKEPQTCNQVSLNTSQSESSDLAGRLKRKKLLKEYYSTESEPLTNGGQKPSSSDTFFRFSPSSSEADIHLLVHVHKHVSMQINHYQYLLLLFLHESLILLSENLRKDVEAVTGSPASQTSICIGILLRSAELALLLHPVDQANTLKSPVSESVSPVVPDYLPTENGDFLSSKRKQISRDINRIRSVTVNHMSDNRSMSVDLSHIPLKDPLLFKSASDTNLQKGISFMDYLSDKHLGKISEDESSGLVYKSGSGEIGSETSDKKDSFYTDSSSILNYREDSNILSFDSDGNQNILSSTLTSKGNETIESIFKAEDLLPEAASLSENLDISKEETPPVRTLKSQSSLSGKPKERCPPNLAPLCVSYKNMKRSSSQMSLDTISLDSMILEEQLLESDGSDSHMFLEKGNKKNSTTNYRGTAESVNAGANLQNYGETSPDAISTNSEGAQENHDDLMSVVVFKITGVNGEIDIRGEDTEICLQVNQVTPDQLGNISLRHYLCNRPVGSDQKAVIHSKSSPEISLRFESGPGAVIHSLLAEKNGFLQCHIENFSTEFLTSSLMNIQHFLEDETVATVMPMKIQVSNTKINLKDDSPRSSTVSLEPAPVTVHIDHLVVERSDDGSFHIRDSHMLNTGNDLKENVKSDSVLLTSGKYDLKKQRSVTQATQTSPGVPWPSQSANFPEFSFDFTREQLMEENESLKQELAKAKMALAEAHLEKDALLHHIKKMTVE
modifications: phosphorylated

System: HepG2-NTCP cells
Experiment: TMT-based phosphoproteome profiling of HBV-infected vs mock HepG2-NTCP (HBV/mock ratio)
Design: species or system human
Settings: sheet Up-regulated, HBV-infected vs mock HepG2-NTCP
[1] = phosphosites of host proteins deregulated at 7dpi
[2] = phosphosite abundance ratio of host protein, 7dpi

Molecule | HBV/mock [1] | HBV/mock [2]
B1 | 2.1075 | 
B2 |  | 1.396
B3 |  | 1.431
B4 | 1.4667 | 
B5 | 1.353 | 
